The subject of this data set is Chlamydia trachomatis. Nature of the data set: C. trachomatis infection of HeLa cells (chlamydial inclusions, immunocytochemistry). The class given is cell-based. As to the method: Chlamydia trachomatis (C. trachomatis) propagation and treatment were carried out as follows. C. trachomatis was propagated in HeLa cells. The titer of C. trachomatis was determined in cyclohexamide-treated HeLa cells, and concentrations used were expressed as inclusion forming units (IFU) per mL.
Assessment of the level of infection was determined as follows. HeLa cells were seeded on glass coverslips in 24-well plates at 3×10^4 cells/well and inoculated with C. trachomatis and then treated with antibiotic (or other compounds of interest). After 48 hours, the infected cells were fixed with 100% methanol and then incubated with anti-Chlamydia monoclonal antibody. Inclusion bodies were visualized by staining with FITC-conjugated secondary antibody and DAPI as counterstaining. The samples were examined by a fluorescence microscopy. Number of inclusions was calculated per 100 cells.
Assessment of antichlamydial activity of Korormicin (Scheme shown in FIG. 1) and PEG-2 (Scheme shown in FIG. 2) were performed as follows. Cells were infected with C. trachomatis and treated with different concentrations of antibiotic of choice. After 48 h of C. trachomatis was collected (P1) and used to infect fresh cells. Subsequent collections of C. trachomatis were used to obtain P2, P3, P4 and P5 stocks of C. trachomatis. […]

As to `CCCCCCC/C=C/C=C\[C@H](O)CC(=O)NC1=C[C@](C)(CC)OC1=O` [PEG-2], the “effectiveness as antichlamydial agent relative to native korormicin” value was ~1,000 times. For the same compound, the “anti-chlamydial effect in excess of that of korormicin” value (5 consecutive treatments, 15 μM) is listed as “at least 2 orders of magnitude”.

The values above are taken from patent publication US12029716B2, “Derivatives of korormicin useful as antibiotics” (Viotika Life Sciences Inc., priority 2015, dated 2024).
